Values of other authors as cited in US9468209B2, “Method for eradicating weeds with derivatives of 3-acetyl-5-sec-butyl-4-hydroxy-3-pyrrolin-2-one” (priority 2012, dated 2016).

Protein sequences, listed by entry. Tags and fused reporters are not part of them. Lines headed by an entry give the natural chain unless they say otherwise; changes in a name come on top.
UniProt P93836: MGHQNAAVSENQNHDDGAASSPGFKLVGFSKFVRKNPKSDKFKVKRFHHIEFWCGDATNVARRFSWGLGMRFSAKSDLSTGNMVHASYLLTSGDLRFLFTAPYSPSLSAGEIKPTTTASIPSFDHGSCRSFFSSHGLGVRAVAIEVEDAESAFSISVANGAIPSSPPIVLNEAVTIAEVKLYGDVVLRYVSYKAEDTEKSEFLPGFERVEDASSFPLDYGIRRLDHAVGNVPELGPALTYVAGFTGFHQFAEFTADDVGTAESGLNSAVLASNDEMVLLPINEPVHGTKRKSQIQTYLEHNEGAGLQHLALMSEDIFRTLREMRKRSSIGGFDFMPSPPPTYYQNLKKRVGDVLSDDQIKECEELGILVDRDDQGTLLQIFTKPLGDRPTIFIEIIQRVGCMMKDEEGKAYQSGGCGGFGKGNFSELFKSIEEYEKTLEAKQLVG

Target: 4-hydroxyphenylpyruvate dioxygenase (HPPD) (Arabidopsis thaliana, UniProt P93836)
Details: Meazza et al., 2002; cited from earlier work

## tenuazonic acid copper salt
  inhibition to HPPD: slight inhibition
